Pooled drug test results. Numbers come from NIAID ChemDB, via PubChem.

Common to all: enzyme or target tests; agent: HIV-1; target: Reverse transcriptase; read-out: IC50

Rows are shuffled and stem from different studies. Blank or dashed fields: not listed here. ICn is the concentration giving n% inhibition.

structure	strain or isolate	mutations	read by	result
Oc1cccc(-c2c3nc(c(-c4cccc(O)c4)c4ccc([nH]4)c(-c4cccc(O)c4)c4nc(c(-c5cccc(O)c5)c5ccc2[nH]5)C=C4)C=C3)c1			nucleotide incorporation	5 µM
OCc1cn(Cc2ccncc2)c(Sc2cc(Cl)cc(Cl)c2)c1C1CCC1		RT-L100I	nucleotide incorporation / radiometric	1.16 µM
CCc1c([Se]c2ccccc2)n(COCc2ccccc2)c(=O)[nH]c1=O	RT-WT		RT activity	0.4 µM
COc1cccc(-c2c3nc(c(-c4cccc(OC)c4)c4ccc([nH]4)c(-c4cccc(OC)c4)c4nc(c(-c5cccc(OC)c5)c5ccc2[nH]5)C=C4)C=C3)c1			nucleotide incorporation	>100 µM
CC1(C)C(O[C@@H]2O[C@H](C(=O)O)[C@@H](O)[C@H](O)[C@H]2O[C@@H]2O[C@H](C(=O)O)[C@@H](O)[C@H](O)[C@H]2O)CC[C@]2(C)C3=CC=C4C5C[C@@](C)(C(=O)O)CC[C@]5(C)CC[C@@]4(C)[C@]3(C)CCC12			nucleotide incorporation / radiometric	3.1 µg/mL
Cc1cn([C@H]2C=C[C@@H](COP(=O)(O)OP(=O)(O)OP(=O)(O)O)O2)c(=O)[nH]c1=O	HXB2		ELISA	0.032 µM
Cc1cc(=O)oc2c3c(c4c(c12)OC(C)(C)C=C4)O[C@H](C)[C@@H](C)[C@H]3O			nucleotide incorporation	19 µM
CCCCC[C@H](O)/C=C/[C@H]1C=CC(=O)[C@@H]1CCCCCCC(=O)O			radiometric	>50 µg/mL
CC[C@@]1(O)C(=O)OCc2c1cc1n(c2=O)Cc2c-1nc1ccccc1c2CO			RT activity / ELISA	>17 µg/mL
Oc1ccc(-c2c3nc(c(-c4ccc(O)cc4)c4ccc([nH]4)c(-c4ccc(O)cc4)c4nc(c(-c5ccc(O)cc5)c5ccc2[nH]5)C=C4)C=C3)cc1			nucleotide incorporation	3 µM
NC(=O)OCc1cn(Cc2ccncc2)c(Sc2cc(Cl)cc(Cl)c2)c1C1CCC1			nucleotide incorporation / radiometric	0.04 µM
CN(C)C(=O)Oc1nsnc1-c1c(Cl)cccc1Cl	IIIB		nucleotide incorporation	5.1 µM
CC(=O)OC[C@H]1O[C@@H](Oc2cc3oc(-c4ccccc4)cc(=O)c3c(OCc3ccccc3)c2OCc2ccccc2)[C@H](OC(C)=O)[C@@H](OC(C)=O)[C@@H]1OC(C)=O			RT activity	>1000 µg/mL
CCc1cc(CCc2nc3ccccc3o2)c(=O)[nH]c1C	RT-WT		nucleotide incorporation	0.035 µM
CC(C)c1c(COC(N)=O)cn(Cc2ccncc2)c1Sc1cc(Cl)cc(Cl)c1			nucleotide incorporation / radiometric	0.7 µM
Nc1ccccc1-c1c2nc(c(-c3ccccc3N)c3ccc([nH]3)c(-c3ccccc3N)c3nc(c(-c4ccccc4N)c4ccc1[nH]4)C=C3)C=C2			nucleotide incorporation	>100 µM
O=C1c2ccccc2S[C@@H]2[C@@H](O)[C@@H](O)[C@H](O)[C@H](CO)N12			RT activity / absorbance	1.32 µM
Cc1cc(C)cc([C@]23SCCN2C(=O)c2ccccc23)c1	IIIB		ELISA	0.09 µM
O=C(CCCCCCCCC(=O)Nc1cc(S(=O)(=O)O)c2cccc(S(=O)(=O)O)c2c1)Nc1cc(S(=O)(=O)O)c2cccc(S(=O)(=O)O)c2c1			nucleotide incorporation	26.6 µM
Cc1nnn2c1CO[C@H]1[C@H](O)[C@H](O)[C@H]3Sc4ccccc4C(=O)N3[C@H]1C2			RT activity / absorbance	10 µM
O=C1CN(C(=O)c2cc(-c3cc(F)cc(Cl)c3)n(-c3ccc(F)c(Cl)c3)n2)CN1			RT activity / absorbance	0.038 µM
CC(=O)OC[C@H]1O[C@@H](Oc2cc3oc(-c4ccccc4)cc(=O)c3c(OCc3ccccc3)c2OCc2ccccc2)[C@@H](OC(C)=O)[C@@H](OC(C)=O)[C@@H]1OC(C)=O			RT activity	>1000 µg/mL
Cc1nnn2c1CO[C@H]1[C@@H]3OC(C)(C)O[C@@H]3[C@H]3Sc4ccccc4C(=O)N3[C@H]1C2			RT activity / absorbance	4.1 µM
O=c1cc(-c2ccccc2)oc2cc(O[C@H]3O[C@H](CO)[C@H](O)[C@H](O)[C@H]3O)c(OCc3ccccc3)c(O)c12			RT activity	>1000 µg/mL
O=C1c2ccccc2S[C@H]2[C@@H](O)[C@@H](O)[C@H](O)[C@H](CO)N12			RT activity / absorbance	0.49 µM
CCCN(C)C(=O)Oc1nsnc1-c1c(Cl)cccc1Cl	IIIB		nucleotide incorporation	0.53 µM
CCc1nnn2c1CO[C@H]1[C@@H]3OC(C)(C)O[C@@H]3[C@@H]3Sc4ccccc4C(=O)N3[C@H]1C2			RT activity / absorbance	0.69 µM
O=C(O)[C@H]1O[C@@H](Oc2cc3oc(-c4ccccc4)cc(=O)c3c(O)c2O)[C@H](O)[C@@H](O)[C@@H]1O			RT activity	65.88 µg/mL
CONC(=O)c1cn(Cc2ccncc2)c(Sc2cc(Cl)cc(Cl)c2)c1C(C)C			nucleotide incorporation / radiometric	1 µM
C=C1CC23CCC4[C@@](C)(CCC[C@@]4(C)C(=O)O)C2CC[C@H]1C3			RT activity	34.1 µg/mL
O=c1cc(-c2ccccc2)oc2cc(O[C@H]3O[C@H](CO)[C@@H](O)[C@H](O)[C@H]3O)c(OCc3ccccc3)c(O)c12			RT activity	>1000 µg/mL
C=C(C)CCOCc1ccc(C2(CC)Oc3ccccc3-n3cccc3C2=O)cc1		RT-Y188L	nucleotide incorporation / radiometric	>10 µM
O=C1c2ccccc2S[C@@H]2[C@@H](O)[C@@H](O)[C@@H]3OCc4cnnn4C[C@@H]3N12			RT activity / absorbance	14.38 µM
CCc1nc2ccccn2c1C(=O)c1cccs1			RT activity	200 µM
N#Cc1cc(Cl)cc(Oc2cc(OS(=O)(=O)F)ccc2Cl)c1	IIIB		RT activity / fluorescence	0.883 µM
CCC1(c2cccc(Cl)c2)Cc2ccccc2-n2cccc2C1=O	WT		nucleotide incorporation / radiometric	3.3 µM
CN(C)c1ccc(-c2c3nc(c(-c4ccc(N(C)C)cc4)c4ccc([nH]4)c(-c4ccc(N(C)C)cc4)c4nc(c(-c5ccc(N(C)C)cc5)c5ccc2[nH]5)C=C4)C=C3)cc1			nucleotide incorporation	>100 µM
CCC1(c2ccc(CNc3ccccc3)cc2)Oc2ccccc2-n2cccc2C1=O		RT-Y188L	nucleotide incorporation / radiometric	>10 µM
CC(C)=CCN1Cc2cccc3[nH]c(=S)n(c23)C[C@@H]1C	RT-WT		RT activity	0.5 µM
O=C1c2ccccc2C2(c3ccccc3)SCCN12	IIIB	RT-Y181C	ELISA	44 µM
CCN(C)C(=O)Oc1nsnc1-c1c(Cl)cccc1Cl	IIIB		nucleotide incorporation	0.16 µM

Repeating the first 3 entries:

| structure | strain or isolate | mutations | read by | result |
|---|---|---|---|---|
| Oc1cccc(-c2c3nc(c(-c4cccc(O)c4)c4ccc([nH]4)c(-c4cccc(O)c4)c4nc(c(-c5cccc(O)c5)c5ccc2[nH]5)C=C4)C=C3)c1 |  |  | nucleotide incorporation | 5 µM |
| OCc1cn(Cc2ccncc2)c(Sc2cc(Cl)cc(Cl)c2)c1C1CCC1 |  | RT-L100I | nucleotide incorporation / radiometric | 1.16 µM |
| CCc1c([Se]c2ccccc2)n(COCc2ccccc2)c(=O)[nH]c1=O | RT-WT |  | RT activity | 0.4 µM |